Reference: patent US8557762 (CHILDREN S HOSPITAL OF PHILADELPHIA, dated 2013)
Values joined by “and” are separate entries in the source; they are usually repeats but may differ in a detail not shown here. Identical values can stand only once.

Target: purified enzymatic subunit of pseutarin C (pt-FXa) (Pseudonaja textilis), Q56VR3

B1: pt-rFV-QQ (pt-FV variant with Arg742 and Arg788 replaced by Gln), Q7SZN0 31-1460 (protein)
chain: AQLREYHIAAQLEDWDYNPQPEELSRLSESDLTFKKIVYREYELDFKQEKPRDALSGLLGPTLRGEVGDSLIIYFKNFATQPVSIHPQSAVYNKWSEGSSYSDGTSDVERLDDAVPPGQSFKYVWNITAEIGPKKADPPCLTYAYYSHVNMVRDFNSGLIGALLICKEGSLNANGSQKFFNREYVLMFSVFDESKNWYRKPSLQYTINGFANGTLPDVQACAYDHISWHLIGMSSSPEIFSVHFNGQTLEQNHYKVSTINLVGGASVTADMSVSRTGKWLISSLVAKHLQAGMYGYLNIKDCGNPDTLTRKLSFRELMKIKNWEYFIAAEEITWDYAPEIPSSVDRRYKAQYLDNFSNFIGKKYKKAVFRQYEDGNFTKPTYAIWPKERGILGPVIKAKVRDTVTIVFKNLASRPYSIYVHGVSVSKDAEGAIYPSDPKENITHGKAVEPGQVYTYKWTVLDTDEPTVKDSECITKLYHSAVDMTRDIASGLIGPLLVCKHKALSVKGVQNKADVEQHAVFAVFDENKSWYLEDNIKKYCSNPSAVKKDDPKFYKSNVMYTLNGYASDRTEVLRFHQSEVVQWHLTSVGTVDEIVPVHLSGHTFLSKGKHQDILNLFPMSGESATVTMDNLGTWLLSSWGSCEMSNGMRLRFLDANYDDEDEGNEEEEEDDGDIFADIFIPSEVVKKKEEVPVNFVPDPESDALAKELGLIDDEGNPIIQPRREQTEDDEEQLMKASMLGLQSFKGSVAEEELKHTALALEEDAHASDPRIDSNSARNPDDIAGRYLQTINRGNKRRYYIAAEEVLWDYSPIGKSQVRSRAAKTTFKKAIFRSYLDDTFQTPSTGGEYEKHLGILGPIIRAEVDDVIEIQFKNLASRPYSLHAHGLLYEKSSEGRSYDDKSPELFKKDDAIMPNGTYTYVWQVPPRSGPTDNTEKCKSWAYYSGVNPEKDIHSGLIGPILICQKGMIDKYNRTIDIREFVLFFMVFDEEKSWYFPKSDKSTCEEKLIGVQSLHTFPAINGIPYQLQGLTMYKDENVHWHLLNMGGPKDIHVVNFHGQTFTEEGREDNQLGVLPLLPGTFASIKMKPSKIGTWLLETEVGENQERGMQALFTVIDKDCKLPMGLASGIIQDSQISASGHVGYWEPKLARLNNTGKYNAWSIIKKEHEHPWIQIDLQRQVVITGIQTQGTVQLLQHSYTVEYFVTYSEDGQNWITFKGRHSETQMHFEGNSDGTTVKENHIDPPIIARYIRLHPTKFYNRPTFRIELLGCEVEGCSVPLGMESGAIKNSEITASSYKKTWWSSWEPFLARLNLEGGTNAWQPEVNNKDQWLQIDLQHLTKITSIITQGATSMTTSMYVKTFSIHYTDDNSTWKPYLDVRTSMEKVFTGNINSDGHVKHFFKPPILSRFIRIIPKTWNQYIALRIELFGCEVF
- Kd: 2.88 nM and 9.39 nM
